{"source": "ChEMBL document CHEMBL1123306", "about": "“31P nuclear magnetic resonance spectroscopic observation of the intracellular transformations of oncostatic cyclophosphamide metabolites” (1986)", "key": {"[1]": {"species": "Homo sapiens", "assay": "Compound was evaluated for its Intracellular transformation in U937 human cells, which followed first order kinetics and k, first order rate constant value was reported at 23 degree Centigrade", "conditions": "u-937"}, "[2]": {"species": "Homo sapiens", "assay": "Compound was evaluated for its Intracellular transformation in U937 human cells, which followed first order kinetics, and t1/2 value was reported at 23 degree Centigrade", "conditions": "u-937"}, "[3]": {"species": "Homo sapiens", "assay": "Compound was evaluated for its Intracellular transformation in U937 human cells, which followed first order kinetics, and t1/2 value was reported at 37 degree Celsius in a 70 mM phosphate buffer at pH 7.", "conditions": "u-937, pH 7"}}, "data": [{"smiles": "NP(=O)(O)N(CCCl)CCCl", "values": [{"measurement": "k", "setting": "[1]", "value": 0.0054, "unit": "min⁻¹"}, {"measurement": "T1/2", "setting": "[2]", "value": 2.08, "unit": "h"}, {"measurement": "T1/2", "setting": "[3]", "value": 0.8, "unit": "h"}]}]}
